PubChem BioAssay AID1259414 – Drosophila RNAi Screening Center – 2018

Screen: 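Fly genes that alter Wolbachia amount inside host cells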 (primary screen)
Cells: Drosophila JW18 cells infected with Wolbachia
Reagent: long dsRNA against Drosophila genes, 0.25 µg dsRNA per well of a 384-well plate
Duration: 5 days
Conditions: cells persistently infected with Wolbachia before knock-down; no added drug
Measurement: 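Imaged fluorescence in situ signal for Wolbachia 23S rRNA per DAPI-counted host cell, given as a robust z-score within each plate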
Direction: Wolbachia per cell robust z: higher = more Wolbachia per host cell than the plate typical
Hit rule: 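Hit when robust z is 1.5 or more, or -1.5 or less, in at least two of three replicates; excludes dsRNAs with several or no targets, genes not expressed in JW18 and well A1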
The deposit covers about 24,000 reagents; below is an unselected part of those with a known target gene and a result. Of all reagents, about 1,210 (5%) were called active. 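Inactive calls also include excluded dsRNAs with several or no targets, genes unexpressed in JW18, and well A1, regardless of score.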 Names joined by + are all predicted targets of the reagent.

| gene | DRSC id | Wolbachia per cell robust z, rep 1 | Wolbachia per cell robust z, rep 2 | Wolbachia per cell robust z, rep 3 | activity call |
| --- | --- | --- | --- | --- | --- |
| FMRFa | DRSC07428 | 0.547 | -0.302 | -0.726 | inactive |
| Hr51 | DRSC06627 | -1.79 | -0.0846 | -0.00145 | inactive |
| Hr51 | DRSC22829 | 0.0996 | 0.423 | -1.37 | inactive |
| CG5096 | DRSC02813 | -0.415 | -1.18 | -0.457 | inactive |
| CG14315 | DRSC14794 | 0.786 | 1.55 | 0.532 | inactive |
| CG32772 | DRSC18406 | 0.953 | -0.0759 | -0.368 | inactive |
| CG32772 | DRSC22349 | -0.903 | -0.0519 | 0.977 | inactive |
| Gpdh2 | DRSC04346 | -2.52 | -0.0765 | -6.32 | inactive |
| CG42538 | DRSC41467 | 0.217 | 0.49 | -2.72 | inactive |
| CG7968 | DRSC01903 | 0.639 | 0.432 | 1.38 | inactive |
| Spn42Dd | DRSC05024 | -1.93 | -1.82 | -10.3 | active |
| Spn42Dd | DRSC22060 | 0.467 | 0.166 | -0.427 | inactive |
| CG9377 | DRSC03217 | -0.255 | 0.338 | 0.192 | inactive |
| shams | DRSC16590 | 1.07 | 0.252 | 0.195 | inactive |
| Cog6 | DRSC06806 | 1.54 | 0.341 | 0.958 | inactive |
| Cog6 | DRSC29566 | 1.67 | 0.543 | 0.337 | inactive |
| CG14282 | DRSC14763 | 0.465 | -0.0413 | -0.299 | inactive |
| CG14282 | DRSC26234 | -0.875 | -2.57 | -0.871 | inactive |
| sced | DRSC04990 | 0.0056 | 1.06 | 1.41 | inactive |
| CG3407 | DRSC00603 | -0.783 | -0.731 | 0.382 | inactive |
| Pp1alpha-96A | DRSC16795 | -0.487 | -2.92 | 0.398 | inactive |
| Pp1alpha-96A | DRSC23320 | 0.965 | 0.277 | 0.448 | inactive |
| Pp1alpha-96A | DRSC25667 | -0.752 | 0.999 | -0.732 | inactive |
| Cyp6a2 | DRSC05014 | 0.479 | -0.229 | -0.172 | inactive |
| Cyp6a2 | DRSC24091 | 1.23 | 0.492 | 0.528 | inactive |
| Swt1 | DRSC20028 | 0.886 | -6.21 | 0.371 | inactive |
| CG18649 | DRSC10334 | 0.521 | 0.573 | -0.216 | inactive |
| NiPp1 | DRSC07307 | -1.43 | -0.685 | -0.00273 | inactive |
| NiPp1 | DRSC41261 | -1.22 | -0.291 | -1.74 | inactive |
| RNaseMRP:RNA | DRSC36557 | 0.357 | -0.0623 | -0.412 | inactive |
| gfzf | DRSC12506 | -0.365 | 0.962 | -0.334 | inactive |
| gfzf | DRSC21874 | 0.237 | 0.166 | 0.12 | inactive |
| Gp210 | DRSC04861 | -2.87 | -0.137 | 0.864 | inactive |
| Gp210 | DRSC04900 | -3.23 | 1.13 | 0.00365 | inactive |
| sprt | DRSC07323 | -1.1 | 0.183 | -0.878 | inactive |

Next part (6 carried over from the part before).
| gene | DRSC id | Wolbachia per cell robust z, rep 1 | Wolbachia per cell robust z, rep 2 | Wolbachia per cell robust z, rep 3 | activity call |
| --- | --- | --- | --- | --- | --- |
| RNaseMRP:RNA | DRSC36557 | 0.357 | -0.0623 | -0.412 | inactive |
| gfzf | DRSC12506 | -0.365 | 0.962 | -0.334 | inactive |
| gfzf | DRSC21874 | 0.237 | 0.166 | 0.12 | inactive |
| Gp210 | DRSC04861 | -2.87 | -0.137 | 0.864 | inactive |
| Gp210 | DRSC04900 | -3.23 | 1.13 | 0.00365 | inactive |
| sprt | DRSC07323 | -1.1 | 0.183 | -0.878 | inactive |
| RhoL | DRSC16824 | 2.71 | -0.0629 | 1.98 | inactive |
| RhoL | DRSC23664 | -0.219 | -1.73 | -2.11 | inactive |
| RhoL | DRSC38970 | 0.00277 | -1.81 | -1.1 | inactive |
| CG7251 | DRSC03039 | -0.573 | -6.35 | 0.0896 | inactive |
| CG7251 | DRSC28293 | -2.58 | -2.39 | -1.58 | inactive |
| Zip42C.1 | DRSC05003 | -3.7 | -0.316 | 0.0428 | inactive |
| CG14132 | DRSC10136 | -1.29 | -1.14 | -0.0051 | inactive |
| Acat2 | DRSC08630 | -0.378 | 0.00519 | -0.358 | inactive |
| CG14671 | DRSC12257 | -0.45 | 0.179 | -1.51 | inactive |
| CG5849 | DRSC15893 | -0.258 | -0.95 | -0.717 | inactive |
| Arc1 | DRSC06159 | 0.0662 | 1.75 | 1.29 | inactive |
| Arc1 | DRSC28128 | -4.05 | 0.11 | 0.677 | inactive |
| Hsp83 | DRSC08664 | -2.7 | 0.252 | 0.228 | inactive |
| Hsp83 | DRSC25052 | -0.0015 | 1.44 | 1.44 | inactive |
| CG2269 | DRSC06833 | -1.14 | -1.18 | -2.59 | inactive |
| CG8180 | DRSC07092 | 0.88 | -1.79 | 0.303 | inactive |
| CG8180 | DRSC07093 | -3.62 | -0.118 | -1.74 | inactive |
| CG10366 | DRSC02046 | -1.23 | -1.09 | -0.889 | inactive |
| CG10366 | DRSC26463 | -0.927 | -1.6 | -0.148 | inactive |
| eloF | DRSC15162 | 0.461 | 0.587 | 0.739 | inactive |
| eloF | DRSC25406 | -0.0331 | 0.223 | -5.61 | inactive |
| mt:Cyt-b | DRSC40590 | 0.676 | 1.04 | 0.538 | inactive |
| Mst89B | DRSC16748 | -0.477 | 0.777 | -0.556 | inactive |
| CG10019 | DRSC24959 | 0.0454 | -0.382 | 1.1 | inactive |
| CG10019 | DRSC39008 | -4.33 | 0.0329 | -0.144 | inactive |
| CG17574 | DRSC06681 | -0.173 | -1.31 | 0.771 | inactive |
| Cyp4ad1 | DRSC07369 | 0.874 | -1.39 | -1.95 | inactive |
| Atg8b | DRSC14501 | -1.5 | -0.0656 | 0.104 | inactive |
| Atg8b | DRSC24428 | -0.832 | -6.98 | -0.678 | inactive |
| CG33964 + CG13175 | DRSC06300 | -0.861 | -2.89 | -0.822 | inactive |
| CG33964 + CG13175 | DRSC06301 | -0.765 | 0.153 | 0.069 | inactive |
| Hip1 | DRSC09812 | -1.22 | 0.417 | -1.66 | inactive |
| CG42688 | DRSC41405 | 0.948 | 0.739 | -0.312 | inactive |
